From patent EP2292225A1 (priority 1997, dated 1998)

What was measured:
[1] = test system: marker-negative HT29 cells; test: Protein synthesis (^3H-leucine) after 5 minute pulse exposure; format: cell-based; details: 5 minute exposure; short-term and after 16-18 hours recovery
[2] = test system: A375 m/m marker-positive cells; test: MTT metabolic activity 48 hours after 5 minute exposure; format: cell-based, human; details: 48 hours recovery, conjugates at the lower doses
[3] = test system: BO54 arterial smooth muscle cells; test: Protein synthesis (^3H-leucine) after 5 minute pulse exposure; format: cell-based, baboon; details: 5 minute exposure; for protein synthesis, long-term: recovery period
[4] = test system: marker-positive A375 cells; test: as above; format: cell-based, human
[5] = test system: BO54 marker-positive smooth muscle cells; test: MTT metabolic activity 48 hours after 5 minute exposure; format: cell-based, baboon; details: 48 hours recovery, conjugates at the lower doses
[6] = test system: HT29 marker-negative cells; test: as above; format: cell-based; details: 48 hours recovery, conjugates at the lower doses
[7] = test system: BO54 (smooth muscle) cells; test: MTT metabolic activity after 24 hours exposure; format: cell-based, baboon; details: overnight recovery period

With Roridin A the “inhibition of cellular protein synthesis” value [1] was “dose-response inhibition of cellular protein synthesis”, the “metabolic activity over the long-term (MTT)” value [2] was “non-specifically inhibitory” and the “protein synthesis, long-term” value ([3]; 50 ng/ml) was 98 % of control. For the same substance, the “protein synthesis, long-term” value ([3]; 100 ng/ml) was 46 % of control, the “protein synthesis, long-term” value ([3]; 200 ng/ml) was 27 % of control and the “protein synthesis, short-term” value ([3]; 50 ng/ml) was 90 % of control. For the same substance, the “protein synthesis, short-term” value ([3]; 100 ng/ml) was 66 % of control, the “protein synthesis, short-term” value ([3]; 200 ng/ml) was 60 % of control and the “inhibition of protein synthesis, long-term” value ([4]; 5 minute exposure, 16-18 hour recovery period) was “manifest even after a 16-18 hour recovery period”. For the same substance, the “inhibition of protein synthesis, short-term” value ([4]; immediately after the 5-minute pulse treatment) was “non-specifically inhibitory”, the “metabolic activity over the long-term (MTT)” value [5] was “non-specifically inhibitory” and the “metabolic activity over the long-term (MTT)” value [6] was “non-specifically inhibitory”. For the same substance, the “concentration at which inhibitory effects on metabolic activity (MTT) were observed” value [7] was > 10 ng/mL.
